Data on three substances can be found in article PMC10823771, “Investigating the replacement of carboxylates with carboxamides to modulate the safety and efficacy of platinum(II) thioether cyanide scavengers” (2023).

One data set deals with Zebrafish larvae. The following applies: across all pH values (4.3 to 7.6); formulations stored 4-5 days; 50 µM cyanide, 3 h.
The nature of data set [1]: Osmolality of formulations.

Marks after values point to notes of the source that are not given here.

In the data set with Zebrafish larvae, “bis-(L-S-methylcysteine amide)-(S,N)platinum(II) dichloride” gave an EC100 of no more than 15 µM.
With “bis-(L-S-methylcysteine)-(S,N)platinum(II) dichloride”, in the data set with Zebrafish larvae, the EC100 is reported as no more than 15 µM. In addition, the Osmolality in data set [1] (mouse formulation, 291 µmole Pt/m^2, pH 6.5, estimated using the osmolality concentration curve for complex 1) is listed as 608^b mmol/kg.
“bis-(L-methionine (S,N)platinum(II) dichloride” came in with an EC100 in the data set with Zebrafish larvae of no more than 15 µM. In addition, the Osmolality is on record as 565^b mmol/kg in data set [1] (mouse formulation, 261 µmole Pt/m^2, pH 6.5, estimated using the osmolality concentration curve for complex 1) and 487 mmol/kg in data set [1] (rat toxicity formulation, 1308 µmole Pt/m^2 (5×), pH 6.5, diluted to reduce osmotic pressure).
